Measured data: PubChem BioAssay AID504761 (Drosophila RNAi Screening Center, 2011)

Assay: 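Fly genes whose silencing reduces dengue virus type 2 infection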 (primary screen)
System: D.Mel-2 cells from Drosophila
Reagent: long dsRNA against Drosophila genes
Conditions: infection with dengue virus type 2; dose and infection time not stated
Read-out: 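Cells stained for dengue envelope protein and imaged; percent of infected cells per well on duplicate plates, ranked by infection, with stained nuclei counted for cell number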
Reading the numbers: infection score: higher = more virus-infected cells
Rule for the call: 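Very low infection ranking in both replicate wells (chance probability at most 0.065), then a retest showing infection dropped 1.5-fold or more at p below 0.05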
Calls: active = confirmed: knock-down lowers infection; inactive = not picked or not confirmed
The screen tested about 22,000 reagents; below is an unselected part of those with a known target gene and a result. Of all reagents, 116 (0.52%) got an active call. 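Calls depend on retest data that are not deposited; infection was ranked per plate without normalising between plates; the unit of the infection score is not given.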 A number with no mark means an inactive call. Reagents against one gene are numbered here. Not all columns of the deposit are shown. No sequences are given here. Not given: the amount of reagent, the time to read-out.

The first 2 records, to show the layout:
{"gene": "CG9806", "reagent no.": 1, "infection score, replicate 1": 6.61}
{"gene": "CG9806", "reagent no.": 2, "infection score, replicate 1": 11.2}

The list itself, from the start:
{"gene": "CG9806", "reagent no.": 1, "infection score, replicate 1": 6.61}
{"gene": "CG9806", "reagent no.": 2, "infection score, replicate 1": 11.2}
{"gene": "Wdr82 (WD repeat domain 82)", "reagent no.": 1, "infection score, replicate 1": 0.95}
{"gene": "Wdr82 (WD repeat domain 82)", "reagent no.": 2, "infection score, replicate 1": 2.73}
{"gene": "Gr93c (Gustatory receptor 93c)", "reagent no.": 1, "infection score, replicate 1": 1.65}
{"gene": "CG4199", "reagent no.": 1, "infection score, replicate 1": 2.55}
{"gene": "CG4199", "reagent no.": 2, "infection score, replicate 1": 0.61}
{"gene": "CG4199", "reagent no.": 3, "infection score, replicate 1": 4.05}
{"gene": "CG33474", "reagent no.": 1, "infection score, replicate 1": 7.86}
{"gene": "CG5096", "reagent no.": 1, "infection score, replicate 1": 16.9}
{"gene": "CG10991 (retired record)", "reagent no.": 1, "infection score, replicate 1": 6.12}
{"gene": "CG4318", "reagent no.": 1, "infection score, replicate 1": 1.96}
{"gene": "Socs16D (Suppressor of Cytokine Signaling at 16D)", "reagent no.": 1, "infection score, replicate 1": 2.88}
{"gene": "Socs16D (Suppressor of Cytokine Signaling at 16D)", "reagent no.": 2, "infection score, replicate 1": 9.42}
{"gene": "Obp49a (Odorant-binding protein 49a)", "reagent no.": 1, "infection score, replicate 1": 5.36}
{"gene": "Obp49a (Odorant-binding protein 49a)", "reagent no.": 2, "infection score, replicate 1": 6.73}
{"gene": "CG17734", "reagent no.": 1, "infection score, replicate 1": 3.95}
{"gene": "CG17734", "reagent no.": 2, "infection score, replicate 1": 11.3}
{"gene": "CG32687", "reagent no.": 1, "infection score, replicate 1": 3.66}
{"gene": "CG32687", "reagent no.": 2, "infection score, replicate 1": 1.47}
{"gene": "CG1785", "reagent no.": 1, "infection score, replicate 1": 3.73}
{"gene": "CG1785", "reagent no.": 2, "infection score, replicate 1": 2.84}
{"gene": "CG33301", "reagent no.": 1, "infection score, replicate 1": 2.44}
{"gene": "CG33301", "reagent no.": 2, "infection score, replicate 1": 5.12}
{"gene": "fs(2)ltoPP43 (female sterile (2) ltoPP43)", "reagent no.": 1, "infection score, replicate 1": 12.1}
{"gene": "fs(2)ltoPP43 (female sterile (2) ltoPP43)", "reagent no.": 2, "infection score, replicate 1": 3.32}
{"gene": "CG2854", "reagent no.": 1, "infection score, replicate 1": 3.53}
